Results from patent publication US8399026B2, “Peptides isolated from spider venom, and uses thereof” (priority 2009, dated 2013).

Test system: rat DRG neurons
Format: cell-based
Conditions: compared to 600 nM TTX in each cell

CSCC[C@@H]1NC(=O)CNC(=O)[C@H](CC(C)C)NC(=O)[C@@H](NC(=O)[C@H](CC(=O)O)NC(=O)[C@@H](N)CC(=O)O)CSSC[C@@H]2NC(=O)[C@@H]3CSSC[C@@H](C(=O)N[C@@H](CCCCN)C(=O)N[C@@H](Cc4ccc(O)cc4)C(=O)N[C@H](C(=O)N[C@@H](CC(C)C)C(N)=O)C(C)C)NC(=O)[C@H](Cc4c[nH]c5ccccc45)NC(=O)[C@H](CCCCN)NC(=O)[C@H](CC(=O)O)NC(=O)[C@H](CCCCN)NC(=O)[C@H](CCCNC(=N)N)NC(=O)[C@H](CC(N)=O)NC(=O)[C@H](CSSC[C@H](NC(=O)[C@H](CO)NC(=O)[C@H](CO)NC(=O)[C@H](Cc4ccccc4)NC1=O)C(=O)N[C@@H](CC(=O)O)C(=O)N1CCC[C@H]1C(=O)N[C@@H](CC(=O)O)C(=O)N[C@@H](CC(N)=O)C(=O)N[C@@H](CC(=O)O)C(=O)N[C@@H](CCCCN)C(=O)N3)NC(=O)[C@H](CCCCN)NC(=O)[C@H](CCCNC(=N)N)NC(=O)CNC(=O)[C@H](CCC(=O)O)NC2=O [Peptide A]
inhibitory action on DRG action potentials compared with TTX: significantly lower than the effect of 600 nM TTX
